Reference: patent publication US20020123480A1, “Methods and compositions utilizing 2'-5' oligoadenylates in the treatment of disorders of cell proliferation” (priority 2000, published 2002)

What was measured:
SiHa (HPV-16-positive) = assay: Growth of HPV-positive SiHa cells, Coulter Counter cell count; type: cell-based, human
EiL8 (HPV-16-positive) = assay: Growth of HPV-positive EiL8 cells, Coulter Counter cell count; type: cell-based, human; settings: for Ratio of IC50 at day 3 to IC50 at day 5: EiL8, Day 5; for Ratio of IC50 at day 3 to IC50 at day 7: EiL8, Day 7; for Ratio of IC50 at day 3 to IC50 at day 10: EiL8, Day 10
Experimental: The cells used in the first study included CK-1 (HPV-33-positive), EiL8 (HPV-16-positive), SiHa (HPV-16-positive) and HeLa (HPV-18-positive) and control primary human cervical keratinocytes (PHK). The cells were cultured in growth medium at 37° C., in 5% CO2. For these experiments, the cells were seeded in 96-well microtiter plates and after 24 hours of growth, serial dilutions of the test compounds were added. The cells were not fed after addition of the compounds. After three, five, seven and ten days, the cells were harvested by trypsinization and counted with a Coulter Counter. Duplicate wells were analyzed for each dilution and the results averaged. The number of cells recovered at each dilution was compared to the number of cells in untreated control wells and the concentration of test compound required to reduce cell growth by 50 percent (IC50) was determined.

HeLa (HPV-18-positive) = assay: Growth of HPV-positive HeLa cells, Coulter Counter cell count; type: cell-based, human
CK-1 (HPV-33-positive) = type: cell-based; settings: for Ratio of IC50 at day 3 to IC50 at day 5: CK-1, Day 5; for Ratio of IC50 at day 3 to IC50 at day 7: CK-1, Day 7; for Ratio of IC50 at day 3 to IC50 at day 10: CK-1, Day 10
[1] = test system: primary human cervical keratinocytes (PHK); assay: Growth of control primary human cervical keratinocytes, Coulter Counter cell count; type: cell-based

| Compound | Ratio of IC50 at day 3 to IC50 at day 5 (SiHa (HPV-16-positive)) | Ratio of IC50 at day 3 to IC50 at day 7 (SiHa (HPV-16-positive)) | Ratio of IC50 at day 3 to IC50 at day 10 (SiHa (HPV-16-positive)) | Ratio of IC50 at day 3 to IC50 at day 5 (EiL8 (HPV-16-positive)) | Ratio of IC50 at day 3 to IC50 at day 7 (EiL8 (HPV-16-positive)) | Ratio of IC50 at day 3 to IC50 at day 10 (EiL8 (HPV-16-positive)) | Ratio of IC50 at day 3 to IC50 at day 5 (HeLa (HPV-18-positive)) | Ratio of IC50 at day 3 to IC50 at day 7 (HeLa (HPV-18-positive)) | Ratio of IC50 at day 3 to IC50 at day 10 (HeLa (HPV-18-positive)) | Ratio of IC50 at day 3 to IC50 at day 5 (CK-1 (HPV-33-positive)) | Ratio of IC50 at day 3 to IC50 at day 7 (CK-1 (HPV-33-positive)) | Ratio of IC50 at day 3 to IC50 at day 10 (CK-1 (HPV-33-positive)) | Ratio of IC50 at day 3 to IC50 at day 5 ([1]; Day 5) | Ratio of IC50 at day 3 to IC50 at day 7 ([1]; Day 7) | Ratio of IC50 at day 3 to IC50 at day 10 ([1]; Day 10) |
| --- | --- | --- | --- | --- | --- | --- | --- | --- | --- | --- | --- | --- | --- | --- | --- |
| 2′,3′-cyclophosphateadenylyl(2′,5′)adenylyl-(2′,5′)adenosine [Cmpd. I] | 1.4 | 1.1 | 0.8 | 0.8 | 0.5 | 0.3 | 1.1 | 0.7 | 0.4 | 2.2 | 1.0 | 0.3 |  |  |  |
| Nc1ccn(C[C@@H](CO)OCP(=O)(O)O)c(=O)n1 [HPMPC, 3-hydroxy-2-phosphonylmethoxy-propyl cytosine, reference compound] | 21 | 38 | 45 | 4.9 | 9.3 | 11 | 6.6 | 9.5 | 7.9 | 29 | 64 | 27 | 1.4 | 1.5 | 2.7 |
